Here are results for one sequence from ChEMBL document CHEMBL1687729, “Intracellular activity of antibiotics in a model of human THP-1 macrophages infected by a Staphylococcus aureus small-colony variant strain isolated from a cystic fibrosis patient: pharmacodynamic evaluation and comparison with isogenic normal-phenotype and revertant strains” (Antimicrob Agents Chemother, 2009).

The MIC is the smallest concentration in the dilution series that meets the test's criterion for growth inhibition. A higher MIC goes with weaker potency.

This assay deals with Staphylococcus aureus.

Sequence GENTAMICIN yielded an MIC of 0.5 µg/mL.
